Some results come without the dose or concentration used.
test system: HeLa cells; assay: Cytotoxicity in HeLa cells (ATP content, ATPlite kit); SI calculated as CC50/EC50; format: cell-based; conditions: SI is calculated as CC50/EC50, three days

SMILES	SI_TOX-HELA_wt
N#CCCCn1c(CN2C(=O)C3(CNC3)c3ccccc32)nc2cc(Cl)ccc21 [Compound 101, 4-{5-Chloro-2-[(2′-oxospiro[azetidine-3,3′-indol]-1′(2′H)-yl)methyl]-1H-benzimidazol-1-yl}butanenitrile]	>111491
CS(=O)(=O)CCCn1c(CN2C(=O)C3(CCN(S(=O)(=O)c4cccs4)CC3)c3ccccc32)nc2cc(Cl)ccc21 [Compound 102]	>68433.7
N#CCCCn1c(CN2C(=O)C3(CCN(C(=O)OC4CCC4)CC3)c3ccncc32)cc2cc(Cl)ccc21 [Compound 103, Cyclobutyl 1′-{[5-chloro-1-(3-cyanopropyl)-1H-indol-2-yl]-methyl}-2′-oxo-1′,2′-dihydro-1H-spiro[piperidine-4,3′-pyrrolo[2,3-c]pyridine]-1-carboxylate]	76392
CNC(=O)OC1CC2(C1)C(=O)N(Cc1nc3cc(Cl)ccc3n1CCCS(C)(=O)=O)c1ccccc12 [Compound 104, (1R,3R)-1′-((5-chloro-1-(3-(methylsulfonyl)propyl)-1H-benzo[d]imidazol-2-yl)methyl)-2′-oxospiro[cyclobutane-1,3′-indoline]-3-yl methylcarbamate]	3927534
CS(=O)(=O)N1CCC2(CC1)C(=O)N(Cc1cc3cc(Cl)ccc3n1CCCC#N)c1cnccc12 [Compound 105, 4-(5-Chloro-2-{[1-(methylsulfonyl)-2′-oxospiro[piperidine-4,3′-pyrrolo[2,3-c]pyridin]-1′(2′H)-yl]methyl}-1H-indol-1-yl)butanenitrile]	895262
CC(C)(O)C(=O)N1CCC2(CC1)C(=O)N(Cc1cc3cc(Cl)ccc3n1CCCCF)c1cnccc12 [Compound 106, 1′-{[5-Chloro-1-(4-fluorobutyl)-1H-indol-2-yl]methyl}-1-(2-hydroxy-2-methylpropanoyl)spiro[piperidine-4,3′-pyrrolo-[2,3-c]pyridin]-2′(1′H)-one]	80390
CC(C)(O)C(=O)N1CCC2(CC1)C(=O)N(Cc1nc3cc(Cl)ccc3n1CCCC#N)c1cnccc12 [Compound 107, 4-(5-Chloro-2-{[1-(2-hydroxy-2-methylpropanoyl)-2′-oxo-spiro[piperidine-4,3′-pyrrolo[2,3-c]pyridin]-1′(2′H)-yl]-methyl}-1H-benzimidazol-1-yl)butanenitrile]	>1.252e+006
N#CCCCn1c(CN2C(=O)C3(CCS(=O)(=O)CC3)c3ccncc32)nc2cc(Cl)ccc21 [Compound 108, 4-{5-Chloro-2-[(1′,1′-dioxido-2-oxo-2′,3′,5′,6′,-tetrahydro-spiro[pyrrolo[2,3-c]pyridine-3,4′-thiopyran]-1(2H)-yl)-methyl]-1H-benzimidazol-1-yl}butanenitrile]	>57149.2
N#CCCCn1c(CN2C(=O)C3(CC(O)C3)c3ccccc32)nc2cc(Cl)ccc21 (centres unmarked) [Compound 109, 4-{5-Chloro-2-[(3-hydroxy-2′-oxospiro[cyclobutane-1,3′-indol]-1′(2′H)-yl)methyl]-1H-benzimidazol-1-yl}butanenitrile]	>523866
N#CCCCn1c(COC2CC3(C2)C(=O)N(Cc2nc4cc(Cl)ccc4n2CCCC#N)c2ccccc23)nc2cc(Cl)ccc21 [Compound 110, 4-(5-chloro-2-(((1S,3S)-1′-((5-chloro-1-(3-cyanopropyl)-1H-benzo[d]imidazol-2-yl)methyl)-2′-oxospiro[cyclobutane-1,3′-indoline]-3-yloxy)methyl)-1H-benzo[d]imidazol-1-yl)butanenitrile]	>69368.1
NS(=O)(=O)N1CCC2(CC1)C(=O)N(Cc1cc3cc(Cl)ccc3n1CCCCF)c1cnccc12 [Compound 111, 1′-{[5-Chloro-1-(4-fluorobutyl)-1H-indol-2-yl]methyl}-2′-oxo-1′,2′-dihydro-1H-spiro[piperidine-4,3′-pyrrolo[2,3-c]-pyridine]-1-sulfonamide]	274530
